Source: article PMC9768162, “Synthesis of macrocyclic nucleoside antibacterials and their interactions with MraY” (Nature Communications, 2022)

Target: T1, MraYSA (S. aureus MraY enzyme) (Staphylococcus aureus, UniProt Q2FZ93)
T1 sequence (Q2FZ93 1-321): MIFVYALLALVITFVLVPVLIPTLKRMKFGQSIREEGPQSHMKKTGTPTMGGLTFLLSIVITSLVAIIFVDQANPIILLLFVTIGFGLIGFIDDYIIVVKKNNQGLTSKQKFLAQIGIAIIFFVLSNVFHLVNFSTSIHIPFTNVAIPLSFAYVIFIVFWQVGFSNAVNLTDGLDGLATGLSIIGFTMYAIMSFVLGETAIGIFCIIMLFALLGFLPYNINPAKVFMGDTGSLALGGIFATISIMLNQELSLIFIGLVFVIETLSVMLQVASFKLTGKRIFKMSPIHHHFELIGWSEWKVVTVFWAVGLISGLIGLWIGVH
Assay: Fluorescence-based MraY inhibitory assay (dansylated Park's nucleotide)
Conditions: ratio of IC50 values, SPM-1 vs SPM-2

How did the “fold more potent than SPM-2 against MraYSA” value turn out when CCCCCCCCCCCCCCCC(=O)O[C@@H]1[C@@H]2CN(C[C@@H]1O)[C@H](C(=O)O)[C@@H]([C@H]1O[C@@H](n3ccc(=O)[nH]c3=O)[C@H](O)[C@@H]1O)O[C@@H]1O[C@H](CN2)[C@@H](O)[C@H]1O [SPM-1] was run?
Its value is 36 fold.
